Results of unrelated studies side by side (data: NIAID ChemDB).

Shared fields: whole-cell or culture tests

Blank or dashed fields: not listed here. Two numbers with a dash give a range or band. Fold resistance has wild type as its base. ECn: concentration that inhibits the pathogen or its effect by n%. Rows are shuffled and stem from different studies. Inhibition is in % at the dose shown (toxicity tests: loss of growth or viability).

structure,species,changes,tested at,cell line,strain or isolate,read-out,method,value
O=C(O[C@@H]1Cc2c(O)cc(O)cc2O[C@@H]1c1cc(O)c(O)c(O)c1)c1cc(O)c(O)c(O)c1,Hepatitis B virus,-,50 µM,-,-,inhibition,PCR,63%
C[C@@H]1CN(Cc2ccccc2)C(=O)c2c3n(c(=O)n2C1)CCN(C(=O)c1ccc(Br)c(Cl)c1)C3,Hepatitis B virus,-,-,HepG2.117,-,EC50,PCR,0.5–5 µM
COc1ccc(CN2CCC(C(=O)Nc3ccc(Oc4ccccc4F)cc3)CC2)c(O)c1,Hepatitis C virus,-,5 µM,Huh7,JFH-1,inhibition,PCR,≥70%
COc1ccc(-n2c(C(=O)NCc3ccc4[nH]c(=O)[nH]c4c3)c3n(c2=O)CCN(C(=O)c2ccc(Cl)c(Cl)c2)C3)cc1,Hepatitis B virus,-,-,HepG2.117,-,EC50,PCR,>5 µM
COc1ccc(/C=C/CN2CCC(C(=O)Nc3cccc(-c4ccco4)c3)CC2)cc1,Hepatitis C virus,-,15 µM,Huh7,JFH-1,inhibition,PCR,<40%
CC1CCC(C(=O)N(c2cc(C#CC(C)(C)C)sc2C(=O)O)C2CCC(O)CC2)CC1,Hepatitis C virus,L419S,-,Huh7,Con1 (gt 1b),fold resistance,luciferase,346.9
O=C(NC1CC2(C1)CC(c1nc3cc(Cl)ccc3o1)C2)C1CN(Cc2ccccc2)S(=O)(=O)C1,Hepatitis A virus,-,-,Primary human hepatocytes,-,EC50,luminescence,4.44 µM
O=C(NCc1ccccc1-n1cncn1)c1c2n(c(=O)n1-c1ccc(OC3CC3)cc1)CCN(C(=O)c1ccc(Br)c(Cl)c1)C2,Hepatitis B virus,-,-,HepG2.117,-,EC50,PCR,<0.1 µM
O=C(N[C@@H](C(=O)N1CCC[C@H]1c1ncc(-c2ccc(-c3ccc(-c4cnc([C@@H]5CCCN5C(=O)[C@H](NC(=O)C5CC5)c5ccccc5)s4)cc3)cc2)s1)c1ccccc1)C1CC1,Hepatitis C virus,P58L,-,Huh7.5,genotype 2a,fold resistance,luciferase / reporter gene,212
CSCCCN1CCC(C(=O)Nc2cccc(-c3cc4ccccc4[nH]3)c2)CC1,Hepatitis C virus,-,15 µM,Huh7,JFH-1,inhibition,PCR,<40%
Oc1ccc([C@H]2Oc3cccc(O)c3C(c3c(O)cc(O)c4c3O[C@H](c3ccc(O)c(O)c3)[C@@H](O)C4)[C@H]2O)cc1O,Hepatitis B virus,-,30 µM,HepG2.2.15,-,inhibition,ELISA / antigen,68.8%
O=C(Nc1ccc(-c2nc3ccccc3[nH]2)cc1)C1CCN(CC2CC=CCC2)CC1,Hepatitis C virus,-,15 µM,Huh7,JFH-1,inhibition,PCR,≥40%
O=C1CCc2cc(-n3c(C(=O)NCc4ccccc4)c4n(c3=O)CCN(C(=O)c3ccc(Br)c(Cl)c3)C4)ccc2N1,Hepatitis B virus,-,-,HepG2.117,-,EC50,PCR,0.5–5 µM
CCn1ncc(CN2CCC(C(=O)Nc3cccc(-c4cccc(F)c4)c3)CC2)c1C,Hepatitis C virus,-,5 µM,Huh7,JFH-1,inhibition,PCR,≥40%
CCS(=O)(=O)c1cccc(CNC(=O)c2c3n(c(=O)n2-c2ccc(OC(C)C)cc2)CCN(C(=O)c2ccc(Br)c(Cl)c2)C3)c1,Hepatitis B virus,-,-,HepG2.117,-,EC50,PCR,0.5–5 µM

The first 2 rows once more:

structure	species	changes	tested at	cell line	strain or isolate	read-out	method	value
O=C(O[C@@H]1Cc2c(O)cc(O)cc2O[C@@H]1c1cc(O)c(O)c(O)c1)c1cc(O)c(O)c(O)c1	Hepatitis B virus	-	50 µM	-	-	inhibition	PCR	63%
C[C@@H]1CN(Cc2ccccc2)C(=O)c2c3n(c(=O)n2C1)CCN(C(=O)c1ccc(Br)c(Cl)c1)C3	Hepatitis B virus	-	-	HepG2.117	-	EC50	PCR	0.5–5 µM